Pooled drug test results. Numbers come from NIAID ChemDB, via PubChem.

Shared fields: toxicity to cultured cells; cell line: MT-4; read-out: CC50

Neighbouring rows are from separate reports.

Nc1nc2c(nnn2CCOCP(=O)(O)O)c(=O)[nH]1 ; value: 69 µM
Cc1cn([C@H]2C[C@H](N=[N+]=[N-])[C@@H](CO)O2)c(=O)[nH]c1=O ; value: 1.5 µg/mL
Nc1nc2c(ncn2CCOCP(=O)(O)OP(=O)(O)OP(=O)(O)O)c(=O)[nH]1 ; value: >200 µM
O=S1(=O)N=C(Nc2ccc(Br)cc2)C=C(Cc2cccc3ccccc23)N1 ; read by: MTT ; value: 140 µM
O=c1[nH]cnc2c1ncn2[C@H]1CC[C@@H](CO)O1 ; read by: MTT ; value: >212 µM
O=C(N/N=C/c1ccc([N+](=O)[O-])cc1)c1csc(N2N=C(c3ccccc3)CC2c2ccc(Cl)cc2)n1 ; read by: MTT / absorbance ; value: 105.9 µM
O=c1ccn([C@@H]2CC[C@H](CO)[Se]2)c(=O)[nH]1 ; read by: MTT ; value: >100 µM
C[C@H](Cn1cnc2c(=O)[nH]c(N)nc21)OCP(=O)(O)O ; value: >333 µM
CC(=O)c1ccc(Cn2cc(CSc3nc(Cc4c(Cl)cccc4Cl)c(C)c(=O)[nH]3)nn2)cc1 ; read by: MTT ; value: 32.58 µM
CC(C)(C)OC(=O)N1CCC(NC(=O)c2cc(O)c(O)c(O)c2)CC1 ; read by: MTT ; value: 42.9 µM
Nc1ccn([C@H]2CC[C@@H](CO)O2)c(=O)n1 ; value: >100 µM
CC(C)(C)C(=O)SCCOP(=O)(COCCn1cnc2c(N)ncnc21)OCCSC(=O)C(C)(C)C ; value: 1.8 µM
O=S1(=O)N=C(Nc2ccc(F)c(F)c2F)C=C(Cc2ccc3ccccc3c2)N1 ; read by: MTT ; value: 143 µM
CCOC(=O)C1c2cccn2S(=O)(=O)c2ccccc2N1C(=O)CBr ; value: 10 µM
C/C(CO)=C(/Br)Cn1cc(I)c(=O)[nH]c1=O ; value: >100 µg/mL
COc1ccc(Cn2cc(CSc3nc(Cc4c(Cl)cccc4Cl)c(I)c(=O)[nH]3)nn2)cc1 ; read by: MTT ; value: 75.91 µM
O=c1[nH]cnc2c1ncn2[C@H]1CC[C@@H](CO)O1 ; read by: MTT ; value: >211.7 µM
C[C@H](Cn1cnc2c(N)ncnc21)OCP(=O)(O)O ; value: >200 µM
CC(=O)Oc1ccc(/C=C/C(=O)O[C@H](C(=O)O)[C@H](OC(=O)/C=C/c2ccc(OC(C)=O)c(OC(C)=O)c2)C(=O)O)cc1OC(C)=O ; value: 93 µM
CC(C)(C)C(=O)SCCOP(=O)(OCCSC(=O)C(C)(C)C)OCC1(Cc2c[nH]c3c(N)ncnc23)CCC1 ; value: 44.7 µM
O=C(N/N=C/c1ccc(Cl)cc1Cl)c1csc(N2N=C(c3ccccc3)CC2c2ccc(Cl)cc2)n1 ; read by: MTT / absorbance ; value: 94.9 µM
Nc1nc2c(ncn2CCOCP(=O)(O)O)c(=O)[nH]1 ; value: 1.6 µM
Cc1cc(C)c(NC2=NS(=O)(=O)NC(Cc3ccccc3)=C2)c(C)c1 ; read by: MTT ; value: 191 µM
Nc1ncnc2c1ncn2CCOCP(=O)(O)O ; value: 229 µM
Cc1cn([C@H]2C[C@@H]3[C@@H](COCN3O)O2)c(=O)[nH]c1=O ; value: 158 µg/mL
Nc1ncnc2c1ncn2CCOCP(=O)(O)O ; value: >10 µM
COc1cc(/C=N/NC(=O)c2csc(N3N=C(c4ccccc4)CC3c3ccc(Cl)cc3)n2)ccc1O ; read by: MTT / absorbance ; value: 60.1 µM
COC(=O)[C@H](CCSC)NC(=O)[C@H](CCSC)NC(=O)COc1ccc2ccccc2c1 ; read by: MTT ; value: >100 µg/mL
Nc1ccn([C@H]2CO[C@@H](CO)S2)c(=O)n1 ; value: >500 µM
CC(=O)NCC(=O)N[C@H](C(=O)N[C@@H](Cc1ccccc1)C(=O)C(F)(F)CCc1ccccc1)C(C)C ; value: >100 µM
CCOC(=O)CC(=O)N1CCC(NC(=O)c2cc(O)c(O)c(O)c2)CC1 ; read by: MTT ; value: 31.3 µM
COC(=O)[C@H](CC(C)C)NC(=O)CNC(=O)COc1ccc2ccccc2c1 ; read by: MTT ; value: 16 µg/mL
COc1ccc(/C=N/NC(=O)c2csc(N3N=C(c4ccccc4)CC3c3ccc(Cl)cc3)n2)cc1O ; read by: MTT / absorbance ; value: 61.75 µM
COC[C@@H](c1ccc(C(F)(F)F)cc1)N1CCN(C2(C)CCN(C(=O)c3c(C)ncnc3C)CC2)C[C@@H]1C ; read by: MTT / absorbance ; value: >5 µM
COc1ccc(CN=C2C=C(Cc3ccc4ccccc4c3)NS(=O)(=O)N2)cc1 ; read by: MTT ; value: 148 µM
Nc1ccn([C@@H]2CO[C@H](CO)S2)c(=O)n1 ; value: >500 µM
Nc1ncnc2nnn(CCOCP(=O)(O)O)c12 ; value: >365 µM
O=c1[nH]c(=O)n([C@H]2C=C[C@@H](CO)O2)cc1C#CCOC1CCCCO1 ; read by: MTT ; value: 68 µM
CC(C)[C@H](NC(=O)OCc1ccccn1)C(=O)N[C@@H](Cc1ccccc1)C(=O)C(F)(F)CCc1ccccc1 ; value: 21 µM
O=c1ccn([C@H]2CC[C@H](CO)[Se]2)c(=O)[nH]1 ; read by: MTT ; value: >100 µM
Cc1c(Cc2c(F)cccc2F)nc(NC2CCCCC2)[nH]c1=O ; read by: MTT ; value: 30 µM
N#Cc1cccc(CN2CCC(N=C3C=C(Cc4cccc5ccccc45)NS(=O)(=O)N3)CC2)c1 ; read by: MTT ; value: 113 µM
COc1cc(/C=N/NC(=O)c2csc(N3N=C(c4ccccc4)CC3c3ccc(Cl)cc3)n2)ccc1OCc1ccccc1 ; read by: MTT / absorbance ; value: >125 µM
Cc1cn([C@H]2C[C@H](N=[N+]=[N-])[C@@H](CO)O2)c(=O)[nH]c1=O ; value: 7.6 µM
C[C@@H]1[C@H](O)[C@@H](C)/C=C/C=C/C=C/C=C/C=C/C=C/C=C/[C@H](O[C@@H]2O[C@H](C)[C@@H](O)[C@H](N)[C@@H]2O)CC2O[C@](O)(CC(O)C(O)CCC(O)CC(O)CC(O)CC(=O)O[C@H]1C)CC(O)C2C(=O)O.O=S(=O)(O)O ; value: >2000 µg/mL
Nc1ccn([C@H]2CC[C@H](CO)[Se]2)c(=O)n1 ; read by: MTT ; value: >100 µM
Cc1ccccc1CN1CCC(N=C2C=C(Cc3ccc(Cl)cc3Cl)NS(=O)(=O)N2)CC1 ; read by: MTT ; value: 107 µM
Nc1ncnc2c1ncn2[C@H]1CC[C@@H](CO)O1 ; value: >200 µM
Nc1ncnc2c1ncn2[C@H]1CC[C@@H](CO)O1 ; value: 1200 µM
CN(C)c1ccc(NC2=NS(=O)(=O)NC(Cc3ccccc3)=C2)cc1 ; read by: MTT ; value: 256 µM
Nc1ncnc2c1ncn2CCOCP(=O)(O)OP(=O)(O)OP(=O)(O)O ; value: >200 µM
O=C(O)C(=O)CC(=O)c1cc(OCc2ccccc2)cc(OCc2ccccc2)c1 ; read by: MTS ; value: 88.3 µM
NS(=O)(=O)c1ccc(NC2=NS(=O)(=O)NC(Cc3ccccc3)=C2)cc1 ; read by: MTT ; value: 318 µM
COC(=O)[C@H](CO)NC(=O)[C@H](CCSC)NC(=O)COc1ccc2ccccc2c1 ; read by: MTT ; value: >100 µg/mL
CC(C)N1C(=O)c2cccn2S(=O)(=O)c2ccccc21 ; value: 100 µM
Cc1ccnc2c1NC(=O)c1cccnc1N2C1CC1 ; read by: MTT ; value: >15 µM
O=C1c2cccn2S(=O)(=O)c2ccccc2N1C1CC1 ; value: >300 µM
COc1cccc(/C=N/NC(=O)c2csc(N3N=C(c4ccccc4)CC3c3ccc(Cl)cc3)n2)c1O ; read by: MTT / absorbance ; value: >125 µM
CCOC(=O)C1c2cccn2S(=O)(=O)c2ccccc2N1C(C)=O ; value: >300 µM
Cc1cn([C@H]2C=C[C@@H](CO)O2)c(=O)[nH]c1=O ; value: 106 µM
Cc1c(Cc2c(Cl)cccc2Cl)nc(SCc2cn(Cc3ccc(S(N)(=O)=O)cc3)nn2)[nH]c1=O ; read by: MTT ; value: 95.49 µM
C/C(CO)=C(/Br)Cn1cnc2c(N)ncnc21 ; value: >100 µg/mL
Nc1ncnc2c1ncn2CCOCP(=O)(O)O ; value: 229 µM
CC(=O)Nc1nc(C)c(S(=O)(=O)N2CCC(NC(=O)c3cc(O)c(O)c(O)c3)CC2)s1 ; read by: MTT ; value: 80 µM
Cc1cn([C@H]2C[C@H](N=[N+]=[N-])[C@@H](CO)O2)c(=O)[nH]c1=O ; read by: MTT / absorbance ; value: >25 µM
Cc1cn([C@H]2C[C@H](F)[C@@H](CO)O2)c(=O)[nH]c1=S ; value: 480 µM
O=c1[nH]c(=O)n([C@H]2C=C[C@@H](CO)O2)cc1C#CCCCO ; read by: MTT ; value: 71 µM
N#Cc1cccc(CN2CCC(N=C3C=C(Cc4ccc(Cl)cc4Cl)NS(=O)(=O)N3)CC2)c1 ; read by: MTT ; value: 99.87 µM
NC(=O)c1ccc(Cn2cc(CSc3nc(Cc4c(Cl)cccc4Cl)c(I)c(=O)[nH]3)nn2)cc1 ; read by: MTT ; value: 94.13 µM
O=c1[nH]c(=O)n([C@H]2C=C[C@@H](CO)O2)cc1C#CCCO ; read by: MTT ; value: 70 µM
[N-]=[N+]=N[C@H]1C[C@H](n2cc(Cl)c(N)nc2=O)O[C@@H]1CO ; value: >877 µM
CN(C)C1=NS(=O)(=O)NC(Cc2ccc3ccccc3c2)=C1 ; read by: MTT ; value: 268 µM
COc1ccc(Cn2cc(CSc3nc(Cc4c(Cl)cccc4Cl)c(C)c(=O)[nH]3)nn2)cc1 ; read by: MTT ; value: 28.98 µM
C/C(CO)=C(/Br)Cn1ccc(N)nc1=O ; value: >100 µg/mL

The first 8 rows once more:

| compound | read by | value |
|---|---|---|
| Nc1nc2c(nnn2CCOCP(=O)(O)O)c(=O)[nH]1 |  | 69 µM |
| Cc1cn([C@H]2C[C@H](N=[N+]=[N-])[C@@H](CO)O2)c(=O)[nH]c1=O |  | 1.5 µg/mL |
| Nc1nc2c(ncn2CCOCP(=O)(O)OP(=O)(O)OP(=O)(O)O)c(=O)[nH]1 |  | >200 µM |
| O=S1(=O)N=C(Nc2ccc(Br)cc2)C=C(Cc2cccc3ccccc23)N1 | MTT | 140 µM |
| O=c1[nH]cnc2c1ncn2[C@H]1CC[C@@H](CO)O1 | MTT | >212 µM |
| O=C(N/N=C/c1ccc([N+](=O)[O-])cc1)c1csc(N2N=C(c3ccccc3)CC2c2ccc(Cl)cc2)n1 | MTT / absorbance | 105.9 µM |
| O=c1ccn([C@@H]2CC[C@H](CO)[Se]2)c(=O)[nH]1 | MTT | >100 µM |
| C[C@H](Cn1cnc2c(=O)[nH]c(N)nc21)OCP(=O)(O)O |  | >333 µM |

CCn is the concentration with n% toxicity to the cells. An empty or dashed field is not shown.